These results are taken from PMC3306370.

Chains of the proteins cited; added tags and fusions are not shown. Lines headed by an entry give the natural chain unless they say otherwise; changes in a name come on top.
UniProt P0ACQ4: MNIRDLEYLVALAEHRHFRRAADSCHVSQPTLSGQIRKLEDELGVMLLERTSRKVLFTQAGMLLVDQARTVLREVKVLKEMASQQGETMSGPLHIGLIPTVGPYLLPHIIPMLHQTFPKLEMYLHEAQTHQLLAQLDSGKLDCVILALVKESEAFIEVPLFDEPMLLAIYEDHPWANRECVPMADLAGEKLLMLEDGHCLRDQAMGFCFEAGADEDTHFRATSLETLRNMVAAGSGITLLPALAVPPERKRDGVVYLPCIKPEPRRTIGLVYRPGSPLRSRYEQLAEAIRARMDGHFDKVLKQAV

This data set concerns the target OxyR (E. coli) (Escherichia coli K12) (UniProt P0ACQ4). The data set can be described thus: EMSA. The following applies: OxyR 58-290 pM monomer, EMSA: binding buffer as cited (ref 36), RT, 20 min, probe 21 pM, 5% native PAGE, recombinant protein, protein details: C-terminal His6 (pET-22b), label: 32P, probe letters rebuilt from the primers and the genome, part of a longer molecule. (In general: Mobility shift assays separate free from complexed probe on a gel.)

The exact form of at least one protein or probe is not confirmed. Negatives hold for the conditions tested.

For “CCTATCAAATGTGAATCGATTAATAGCTTACATTAAAAAGCAAACCCTAGCAATGAACTTTTTTTGTTAGGTATTACCTACAACTAAAGGTGGAGTGCTAGAGTTCATGA (double strand) [probe (a)]”, the binding result is, setting by setting: (200 mM DTT) “no binding”; (no DTT, +/-200 mM DTT) “no binding”.
